# Human monoclonal antibodies against the spike receptor-binding domain (heavy:light variable regions). IC50 against pseudoviruses bearing the spike of naturally observed variants; lower = stronger; >10 µg/ml means not reached at the top dose. No active / inactive call. The stated detection limit is 0.0005 µg/ml; values near or below 0.001 µg/ml lie at the floor of the assay.
# B1: BD57-0221 (protein)
# chain 1: QLQLQESGPGLVKPSETLSLTCTVSGGSITNSGYQWGWIRQPPGKGLEWIANIYSTGGTYYNLSLKSRAIISIDTSKNRFSLKLTSVTAADTAVYYCARPAGQQGDWFDPWGQGILVTVSS
# chain 2: SYVLTQPPSVSVAPGKTARITCGGDNIGSKNVHWYQQRPGQAPILVIYYDSDRPSGIPERFSGSNSGNTATLTISRVEAGDEADYYCQVWDSNIDLHYVFGTGTKVTVL
# B2: BD57-0229 (protein)
# chain 1: QVQLQESGPGLVRPSETLSLTCIVSTGSISSSPYYWEWIRLPPGKGLEWIGGISYSGSAYYNPSLRSRVSISIDTSKNQLSLTLSSVTAADTALYYCARRVITGTPPFDYWGQGTLVTVSS
# chain 2: SYVLAQPPSVSVPPGKTARITCGGDNIGSKSVHWYQQKPGQAPLLVMFYDSDRPSGIPERFSGSNSGNTATLTISRVEAGDEADYYCQLWDPHVIFGGGTKLTVL
# B3: BD57-0207 (protein)
# chain 1: QVHLVQSGAEVKKTGSSVKVSCKASGGTFSSYVISWVRQAPGQGLEWMGGIIPVFGVPNYAQKFKGRVTITADESTGSAYMELSSLRSEDTAVYFCATGGVSGTKVYSMAVWGEGTAVTVSS
# chain 2: QSALTQPPSASGSPGQSVTISCTGTSSDVGGFNYVSWYQQHPGKAPKLILYEVSQRPSGVPDRFSGSKSGNTASLTVSGLQADDEADYYCSSYGGSNNLIFGGGTKLTVL
# B4: BD57-0200 (protein)
# chain 1: QVHLVESGGGVVQPGRSLRLSCAASRFPFSDYGMHWVRQAPGKGLEWVAAISYDGTDKYYSGSVKGRFTISRDDSRNTLYLQMNSLRVEDTAVYYCARDSGRYGSGWSTTYYFGLDVWGQGTTVIVSS
# chain 2: QSVLTQPPSVSAAPGQKVSISCSGSSSNIEHNHVSWYQQLPGTAPKLLIYDNNQRPSGIPDRFSGSKSGTSATLGITGLQTGDEAAYYCASWDSSLSLWVFGGGTKVTVL
# B5: BD57-0217 (protein)
# chain 1: EVQLVESGGGLVQPGGSLRLSCAASGFTFSTYDMHWVRQVTGKGLEWVSAIGTSGDRYYSDSVKGRFIISRDNAKNSLSLQMNNLRAGDTAVYYCARGDSNALNYYYMDVWGKGTTVTVSS
# chain 2: DIQMTQSPSSLSASVGDRVTITCRASQTISNFLNWYQQKPGKAPSLLLYAASSLQSGVPSRFSGSGYGTEFTLTISNLQPEDFATYYCQQSYESPPWTFGQGTKVEIK
# B6: BD57-0201 (protein)
# chain 1: QVQLVQSGAEVKKPGASVKVSCKASGYTFTSYYIHWVRQAPGQGLEWMGIINPSAGSTTYAQKFQGRVTMTRDTSTSTVYMELSSLRSEDTAFYYCARDIVLVPAANAFDIWGQGTMVTVSS
# chain 2: EIVLTQSPATLSLSPGERATLACRASQSVSSYLAWYQQKPGQAPRLLIYDASNRATGIPARFSGSGSGTDFTLTISSLEPEDFAVYYCQQRSNWPRTWTFGQGTKVEIK
# Biological target: SARS-CoV-2 Omicron BA.1 spike pseudovirus
# Experiment: pseudovirus neutralization IC50; higher = weaker neutralization
# Experimental: (§1)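 Single-round VSV luciferase pseudovirus mixed with antibody dilutions for 1 h and put on Huh-7 cells for about a day; IC50 from the dose curve.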
row,Binder,pseudovirus neutralization IC50 [µg/mL]
1,B1,0.858
2,B2,3.79
3,B3,> 10
4,B4,0.556
5,B5,> 10
6,B6,> 10

# Biological target: SARS-CoV-2 Omicron BA.2 spike pseudovirus
# Experiment: as above
# Experimental: as §1
row,Binder,pseudovirus neutralization IC50 [µg/mL]
1,B1,1.42
2,B2,7.6
3,B3,> 10
4,B4,0.72
5,B5,> 10
6,B6,> 10

# Biological target: SARS-CoV-2 Omicron BA.2.75 spike pseudovirus
# Experiment: as above
# Experimental: as §1
row,Binder,pseudovirus neutralization IC50 [µg/mL]
1,B1,1.3
2,B2,4.68
3,B3,0.18
4,B4,0.554
5,B5,> 10
6,B6,> 10

# Biological target: SARS-CoV-2 Omicron BA.5 spike pseudovirus
# Experiment: as above
# Experimental: as §1
row,Binder,pseudovirus neutralization IC50 [µg/mL]
1,B1,3.53
2,B2,> 10
3,B3,2.87
4,B4,1.38
5,B5,> 10
6,B6,> 10

# Biological target: SARS-CoV-2 Omicron BQ.1.1 spike pseudovirus
# Experiment: as above
# Experimental: as §1
row,Binder,pseudovirus neutralization IC50 [µg/mL]
1,B1,4.11
2,B2,> 10
3,B3,5.46
4,B4,2.95
5,B5,> 10
6,B6,> 10

# Biological target: SARS-CoV-2 Omicron XBB spike pseudovirus
# Experiment: as above
# Experimental: as §1
row,Binder,pseudovirus neutralization IC50 [µg/mL]
1,B1,3.26
2,B2,> 10
3,B3,> 10
4,B4,2.28
5,B5,> 10
6,B6,> 10

# Biological target: SARS-CoV-2 early D614G spike pseudovirus
# Experiment: as above
# Experimental: as §1
row,Binder,pseudovirus neutralization IC50 [µg/mL]
1,B1,3.18
2,B2,3.62
3,B3,0.000695
4,B4,1.46
5,B5,> 10
6,B6,> 10

# Reference: the supplement of paper PMC9931576
